Source: patent publication US20230365632A1, “A GROUP OF PEPTIDE DERIVATIVE OMICSYNINS WITH ANTIVIRAL ACTIVITY AND USES THEREOF” (INSTITUTE OF MEDICINAL BIOTECHNOLOGY CHINESE ACADEMY OF …, priority 2020, published 2023)
Like-named read-outs stand apart in the source and are kept apart here. *1 amine or outer side, *2 acyl side, *3 side chain or, on linkers, in order; H or OH if unused. Where a SMILES comes first, the peptide text is derived from it. [ ]: non-standard residue; d: D form. Phe(ol) = N[CH](CO)Cc1ccccc1; CO = O=C([*:1])[*:2]

Key:
[1] = test system: influenza virus A/wuhan/359/95 (H3N2); format: cell-based
[2] = test system: coronavirus HCoV-229E; test: CPE inhibition assay against HCoV-229E in Huh7.5 cells; format: cell-based; details: Table 10; TC50/IC50

Q: CC(C)C(NC(=O)C(CCCNC(=N)N)NC(=O)NC(Cc1ccccc1)C(=O)O)C(=O)NC(CO)Cc1ccccc1 (stereo not drawn) [Omicsynin A3, Chymostatinol A] ({Phe-CO}-Arg-Val-[Phe(ol)]; configuration not given here) was tested. Which “A/Wuhan/359/1995 (H3N2) SI” value [1] did it give?
A: Its value is greater than 3.82.

Q: And the “HCoV-229E SI” value [2]?
A: Its value is greater than 2.93.

Q: Which results are given for CC(C)[C@H](NC(=O)[C@H](CCCNC(=N)N)NC(=O)N[C@@H](Cc1ccccc1)C(=O)O)C(=O)N[C@H](C=O)CCCNC(=N)N [Omicsynin B4, Antipain] ({Phe-CO}-Arg-Val-Arg-aldehyde)?
A: A/Wuhan/359/1995 (H3N2) SI ([1]; Table 9, TC50/IC50): > 136.05; HCoV-229E SI [2]: > 186.34

Q: Which “A/Wuhan/359/1995 (H3N2) SI” value ([1]; Table 5, TC50/IC50) does the source give for CCOC(=O)C1=C[C@@H](OC(CC)CC)[C@H](NC(C)=O)[C@@H](N)C1 [Oseltamivir Phosphate] here?
A: Its value is 287.3.

Q: Which “A/wuhan/359/95(H3N2) SI” value ([1]; Table 1, positive drug, TC50/IC50) does the source give for CCOC(=O)C1=C[C@@H](OC(CC)CC)[C@H](NC(C)=O)[C@@H](N)C1 [Oseltamivir] here?
A: The value was 773.

Q: And the “A/wuhan/359/95(H3N2) SI” value ([1]; Table 2, TC50/IC50)?
A: The value was 773.0.

Q: And the “A/Wuhan/359/1995 (H3N2) SI” value ([1]; Table 3, TC50/IC50)?
A: The value was 287.3.

Q: And the “A/Wuhan/359/1995 (H3N2) SI” value ([1]; Table 4, positive drug, TC50/IC50)?
A: Its value is greater than 565.0.

Q: What about the “A/Wuhan/359/1995 (H3N2) SI” value ([1]; Table 6, TC50/IC50) of the same molecule?
A: The value was 233.7.

Q: What does the source list for CC(C)C[C@H](NC(=O)[C@@H](NC(=O)N[C@@H](Cc1ccccc1)C(=O)O)[C@@H]1CCN=C(N)N1)C(=O)N[C@H](C=O)Cc1ccccc1 [chymostatin, Chymostatin]?
A: A/Wuhan/359/1995 (H3N2) SI [1]: > 1.00; HCoV-229E SI [2]: > 6.93
